Data reported in publication PMC9728880.
For at least one entry, the source does not settle the construct or the ends of the probe.

Test system: rHis-ItrA (SPN3597, DeoR family regulator) (Salmonella enterica serovar Pullorum C79-13)
Test: EMSA
Details: 2 uM rHis-ItrA; EMSA: 10 mM Tris-HCl pH 8.0, 50 mM KCl, 1 mM DTT, 0.5 mM EDTA, 5% glycerol, 10 ug/ml BSA, 200 ng/ul poly(dI:dC), 25 ng DNA, 37 C 30 min; 6% native PAGE on ice; recombinant protein; residues 1-255; protein details: His (pColdI); label: FAM; probe letters rebuilt from the primers and the genome

Sequence: AACACCTCATACGTGGTTTAACATAATCCCTTATTGTACGCACCGCTAAAACGCGTTCATCGCGATCACGGCAGCAGACAGGTAAAAATGGCAACAAACCATCGTCGACCTGCAGGCA (double strand) [P-90~+10]
- binding result: binds
